Compound potency records, mixed from different reports. Data source: NIAID ChemDB in PubChem.

Common to all: whole-cell or culture tests; species: HIV-1; read by: luminescence; endpoint: EC50

ECn: concentration that inhibits the pathogen or its effect by n%. Lines come from different laboratories, so protocols vary. An empty or dashed field is not shown.

SMILES	strain or isolate	cell line	conditions	mutations	value
Fc1cccc(N=Cc2cc3ccccc3nc2Nc2cccc(F)c2)c1	VB59	TZM-bl	-	-	>130 µM
Cc1ncc(-c2ccc(OCC3CC3)cn2)c(N2CCC3(CCCC3)CC2)c1[C@H](OC(C)(C)C)C(=O)O	NL4-3	MT-2	-	-	9.8 µM
Cc1cn([C@H]2C[C@H](N=[N+]=[N-])[C@@H](CO)O2)c(=O)[nH]c1=O	VB59	TZM-bl	-	-	0.03 µM
Cc1nc2ccccc2c2c1C(=O)NC2=O	-	-	-	-	100 µM
Cc1cn(C2CC(n3nnc(C4CC4)c3C3(C(F)(F)F)OC(=O)Nc4ccc(Cl)cc43)C(CO)O2)c(=O)[nH]c1=O	UG070	TZM-bl	-	-	8.83 µg/mL
COc1cccc2ccc(-c3nnc(-c4cccc(F)c4)o3)nc12	UG070	TZM-bl	-	-	70.71 µM
Cc1ncc(-c2ccc(OCCc3ccc(F)cc3)cn2)c(N2CCC3(CCC3)CC2)c1[C@H](OC(C)(C)C)C(=O)O	NL4-3	MT-2	-	-	0.8 µM
O=C(c1cc(-c2cc(Br)cc(OC(F)(F)F)c2)n(-c2ccnc(C(F)(F)F)c2)n1)N1CCSC1	NL4-3	MT-4	-	K103N/Y181C	3.3 µM
O=C(NCc1ccc(F)c(Cl)c1F)c1cn2c(c(O)c1=O)C(=O)N1CCCO[C@]13C1CC1C[C@H]23	IIIB	MT-4	-	-	0.003754 µM
COc1cccc2ccc(-c3nnc(-c4ccc(C)cc4)o3)nc12	VB59	TZM-bl	-	-	35.89 µM
CCC1(C)CCN(c2c(-c3ccc(OCC(C)C)cn3)cnc(C)c2[C@H](OC(C)(C)C)C(=O)O)CC1	NL4-3	MT-2	-	-	3 µM
CCCCCCCCCCCCCCCCCCOCCOP(=O)(CO[C@H](C)Cn1cnc2c(N)ncnc21)OC1CC1	-	PBMC	-	-	0.413 µM
Clc1cc(/C=C/c2ccc(N3CCCC3)cc2)nc2ccccc12	VB59	TZM-bl	-	-	9.86 µM
Cn1nc(NS(C)(=O)=O)c2c(Cl)ccc(-n3c(C(Cc4cc(F)cc(F)c4)NC(=O)Cn4nc(C(F)F)c5c4C(F)(F)[C@@H]4C[C@H]54)nccc3=O)c21	NL4-3	MT-2	-	-	0.0327 µM
Cc1ncc(-c2ccc(OC[C@H](C)Oc3ccccc3)nc2)c(N2CCC(C)(C)CC2)c1[C@H](OC(C)(C)C)C(=O)O	NL4-3	MT-2	-	-	0.0023 µM
Brc1cccc(N=Cc2cc3ccccc3nc2Nc2cccc(Br)c2)c1	VB59	TZM-bl	-	-	>130 µM
Cc1nnc(-c2cccc(-c3cccc(C(=O)N4CCCCC4)c3)c2)o1	CH119	TZM-bl	pseudotyped	-	>30 µM
C[C@H](c1ccccc1)N1O[C@@]2(CC[C@H](C)N3C[C@H]2n2cc(C(=O)NCc4c(F)cc(F)cc4F)c(=O)c(O)c2C3=O)CC1=O	IIIB	MT-4	-	-	0.0009 µM
COc1ccc(/C=C/c2cc(Cl)c3cc(Cl)ccc3n2)c(OC)c1	UG070	TZM-bl	-	-	0.61 µM
Cc1ncc(-c2ccc(OCCOc3cccc(Cl)c3)cn2)c(N2CCC(C)(C)CC2)c1[C@H](OC(C)(C)C)C(=O)O	NL4-3	MT-2	-	-	0.0008 µM
C[C@H]1CO[C@@H]2Cn3cc(C(=O)NCc4ccc(F)cc4F)c(=O)c(O)c3C(=O)N12	LAI	TZM-bl	-	-	0.00032 µM
Cc1ccc(OCCNc2ccc(-c3cnc(C)c([C@H](OC(C)(C)C)C(=O)O)c3N3CCC(C)(C)CC3)cn2)c(Cl)c1	NL4-3	MT-2	-	-	0.004 µM
COc1ccc(-c2nnc(-c3ccc4cccc(OC)c4n3)o2)cc1	UG070	TZM-bl	-	-	135 µM
Cc1ncc(-c2ccc(OCCc3ccc(F)cc3)cn2)c(N2CCC(C)(c3ccccc3)CC2)c1[C@H](OC(C)(C)C)C(=O)O	NL4-3	MT-2	-	-	0.7 µM
CC1(C)CC=C(c2cn(-c3nccc(C(=O)NC4CCC(N5CC6CCC(C5)O6)CC4)n3)c3ccc(F)c([C@H](OC(C)(C)C)C(=O)O)c23)CC1	NL4-3	MT-4	-	T124S	0.0038 µM
Cc1ncc(-c2ccc(OCCOc3ccc(Cl)cc3F)cn2)c(N2CCC(C)(C)CC2)c1[C@H](OC(C)(C)C)C(=O)O	NL4-3	MT-2	-	-	0.0013 µM
Cc1nc2ccccc2c(-c2cc(F)c3c(c2C)CCCO3)c1[C@H](OC(C)(C)C)C(=O)O	NL4-3	MT-4	-	-	0.019 µM
COc1cccc2ccc(/C=C/C(=O)Nc3ccccc3F)nc12	VB51	PBMC	-	-	5.49 µM
CCC1(C)CCN(c2c(-c3ccc(OCCOc4ccccc4)cn3)cnc(C)c2[C@H](OC(C)(C)C)C(=O)O)CC1	NL4-3	MT-2	-	-	1.9 µM
Cc1ccc(-c2cc(-c3ccccc3)n(-c3ccc(C(C)(C)C)cc3)n2)c(=O)[nH]1	VB59	TZM-bl	-	-	6.14 µM
COc1cccc2ccc(-c3nnc(-c4ccc5c(c4)OCO5)o3)nc12	VB59	TZM-bl	-	-	119 µM
Fc1ccc(OCCC(Cn2ccnc2)c2ccc(Cl)cc2Cl)cc1	NL4-3	H9	-	-	8.63 µM
C#C[C@]1(COC(=O)OCC)O[C@@H](n2cnc3c(N)nc(F)nc32)C[C@@H]1O	NL4-3	U373-CD4-CXCR4	-	gp160 M184V	0.1123 µM
COc1ccc(/C=C/c2cc(Cl)c3ccccc3n2)c(OC)c1	VB59	TZM-bl	-	-	6.89 µM
CCN(C)Cc1ccc2c(c1)C[C@H](CN=C(N)N)[C@H]2NC(=O)C(=O)Nc1ccc(Cl)c(F)c1	JR-FL	Cf2Th-CD4/CCR5	-	-	10 µM
Cc1ncc(-c2ccc(OCCC3CCCCC3)cc2)c(N2CCC(C)(C)CC2)c1[C@H](OC(C)(C)C)C(=O)O	NL4-3	MT-2	-	-	0.0036 µM
O=c1[nH]sc2ccc(Br)cc12	-	-	-	-	170 µM
O=C1CN(C(=O)c2cc(-c3cc(Br)cc(OC(F)(F)F)c3)n(-c3ccncc3)n2)CN1	NL4-3	MT-4	-	-	0.112 µM
Cc1ccc(-n2nc(-c3ccc(C)[nH]c3=O)cc2-c2ccccc2)cc1	VB59	TZM-bl	-	-	>147 µM
CN(CCc1ccccc1)Cc1ccc2c(c1)C[C@H](CN=C(N)N)[C@H]2NC(=O)C(=O)Nc1ccc(Cl)c(F)c1	AD8	Cf2Th-CD4/CCR5	-	-	7.1 µM
CCOCC(C)Oc1ccc(-c2cnc(C)c([C@H](OC(C)(C)C)C(=O)O)c2N2CCC(C)(C)CC2)cn1	NL4-3	MT-2	-	-	0.0052 µM
C#C[C@]1(CO)O[C@@H](n2cnc3c(N)nc(F)nc32)C[C@@H]1OC(=O)OCCCCCCCCCCCCCCCCCCCC	NL4-3	U373-CD4-CXCR4	-	gp160 M184V	>25 µM
C[C@@H]1CO[C@@]23CCCC[C@@H]2n2cc(C(=O)NCc4ccc(F)cc4F)c(=O)c(O)c2C(=O)N13	IIIB	MT-4	-	-	0.002096 µM
Cc1ccc(-c2cc(-c3ccccc3)n(-c3ccc(F)cc3)n2)c(=O)[nH]1	UG070	TZM-bl	-	-	35.07 µM
Cc1ncc(-c2ccc(OCCn3cccn3)cn2)c(N2CCC(C)(C)CC2)c1[C@H](OC(C)(C)C)C(=O)O	NL4-3	MT-2	-	-	0.0089 µM
Cc1cn([C@H]2C[C@H](N=[N+]=[N-])[C@@H](CO)O2)c(=O)[nH]c1=O	VB59	TZM-bl	-	-	0.02 µg/mL
C#C[C@]1(CO)O[C@@H](n2cnc3c(NC(=O)OCC)nc(F)nc32)C[C@@H]1O	NL4-3	U373-CD4-CXCR4	-	gp160 M184V	6.29 µM
Cc1sc(-c2ccncc2)c(C2=CCC(C)(C)CC2)c1[C@H](OC(C)(C)C)C(=O)O	NL4-3	MT-4	-	-	0.032 µM
Cc1ncc(-c2ccc(N(C)CCOc3ccc(F)cc3C(N)=O)cn2)c(N2CCC(C)(C)CC2)c1[C@H](OC(C)(C)C)C(=O)O	NL4-3	MT-2	-	-	0.0398 µM
C[C@H]1CC[C@]2(CC(=O)N(CC3CCOCC3)O2)[C@H]2CN1C(=O)c1c(O)c(=O)c(C(=O)NCc3c(F)cc(F)cc3F)cn12	IIIB	MT-4	-	-	0.0023 µM
Fc1ccc(/C=C/c2cc(Cl)c3ccccc3n2)cc1	UG070	TZM-bl	-	-	41.34 µM
CCC1(C)CCN(c2c(-c3ccc(OCCCC(F)(F)F)cn3)cnc(C)c2[C@H](OC(C)(C)C)C(=O)O)CC1	NL4-3	MT-2	-	-	2.8 µM
Cn1nc(NS(C)(=O)=O)c2c(Cl)ccc(-n3c([C@H](Cc4cc(F)cc(F)c4)NC(=O)Cn4nc(C(F)(F)F)c5c4C(F)(F)[C@@H]4C[C@H]54)nccc3=O)c21	NL4-3	MT-2	-	-	0.000493 µM
COc1cc(/C=C/c2cc(Cl)c3cc(Cl)ccc3n2)cc(OC)c1OC	UG070	TZM-bl	-	-	110 µM
CCC(F)(F)COc1ccc(-c2cnc(C)c([C@H](OC(C)(C)C)C(=O)O)c2N2CCC3(CCCC3)CC2)nc1	NL4-3	MT-2	-	-	9 µM
C[C@@H]1CCO[C@H]2Cn3cc(C(=O)NCc4ccc(F)cc4F)c(=O)c(O)c3C(=O)N12	LAI	TZM-bl	-	3'-PPT mutations	0.00085 µM
Cc1ncc(-c2ccc(OCC(C)C)cn2)c(N2CCC3(CCCO3)CC2)c1[C@H](OC(C)(C)C)C(=O)O	NL4-3	MT-2	-	-	18.3 µM
C[C@H]1CC[C@]2(CC(C#N)=NO2)[C@H]2CN1C(=O)c1c(O)c(=O)c(C(=O)NCc3ccc(F)cc3F)cn12	IIIB	MT-4	-	-	0.1 µM
COc1cccc(-n2nc(-c3ccc(C)[nH]c3=O)cc2-c2ccccc2)c1	UG070	TZM-bl	-	-	>280 µM
[2H]C([2H])([15NH]C(=O)c1cn2c(c(O)c1=O)C(=O)N1C[C@@H]2[C@]2(CC[C@@H]1C)CC(C)=NO2)c1ccc(F)cc1F	IIIB	MT-4	-	-	0.0018 µM
O=C(NCCCN1CCN(CCCNC(=O)Nc2ccc(Cl)cc2)CC1)Nc1ccc(Cl)cc1	NL4-3	SupT1	-	-	11.98 µM
C[C@@H]1CO[C@@]2(CC[C@H](C)N3C[C@H]2n2cc(C(=O)NCc4c(F)cc(F)cc4F)c(=O)c(O)c2C3=O)O1	IIIB	MT-4	-	-	0.0005 µM
COc1cccc2ccc(C(CC(=O)Nc3ccccc3)Nc3ccccc3)nc12	UG070	TZM-bl	-	-	>100 µM

For reference, 6 entries again:

SMILES,strain or isolate,cell line,conditions,mutations,value
COc1cccc2ccc(C(CC(=O)Nc3ccccc3)Nc3ccccc3)nc12,UG070,TZM-bl,-,-,>100 µM
Cc1ncc(-c2ccc(OCC(C)C)cn2)c(N2CCC3(CCCO3)CC2)c1[C@H](OC(C)(C)C)C(=O)O,NL4-3,MT-2,-,-,18.3 µM
CCCCCCCCCCCCCCCCCCOCCOP(=O)(CO[C@H](C)Cn1cnc2c(N)ncnc21)OC1CC1,-,PBMC,-,-,0.413 µM
COc1ccc(/C=C/c2cc(Cl)c3ccccc3n2)c(OC)c1,VB59,TZM-bl,-,-,6.89 µM
Cc1ncc(-c2ccc(OC[C@H](C)Oc3ccccc3)nc2)c(N2CCC(C)(C)CC2)c1[C@H](OC(C)(C)C)C(=O)O,NL4-3,MT-2,-,-,0.0023 µM
C[C@H]1CC[C@]2(CC(C#N)=NO2)[C@H]2CN1C(=O)c1c(O)c(=O)c(C(=O)NCc3ccc(F)cc3F)cn12,IIIB,MT-4,-,-,0.1 µM